A mixed list of measured activities; the numbers were collected in NIAID ChemDB.

All rows: whole-cell or culture tests; organism: HIV-1; method: p24; measure: EC50

Lines come from different laboratories, so protocols vary. ECn is the concentration giving n% inhibition of infection, replication or growth. Two numbers with a dash give a range or band. Blank or dashed fields: not listed here.

smiles | cells | changes | strain or isolate | conditions | value
CCCOP(=O)(OCCC)OC[C@H]1O[C@@H](n2cc(C)c(=O)[nH]c2=O)C[C@@H]1OC(C)=O | C8166 | - | RF | - | >100 µM
CCSCCCCCCCCCCC(=O)OC[C@@H]1C=C[C@H](n2cc(C)c(=O)[nH]c2=O)O1 | MT-4 | - | - | - | 0.03 µM
CC(C)CN(C[C@@H](O)[C@H](Cc1ccccc1)NC(=O)OC(C)(C)C)S(=O)(=O)c1ccc2nonc2c1 | CEM | - | IIIB | - | <1.001 µM
CCOP(=O)(N[C@@H](CC(C)C)C(=O)OC)OC[C@H]1O[C@@H](n2cc(C)c(=O)[nH]c2=O)C[C@@H]1N=[N+]=[N-] | C8166 | - | RF | - | 30 µM
CC(C)[C@H](NC(=O)OCc1ccccc1)C(=O)N[C@@H](Cc1ccccc1)[C@@H](O)[C@@H](NCc1ccccc1)C(=O)N[C@H](C(=O)NCc1nc2ccccc2[nH]1)C(C)C | MT-4 | - | RF | - | 0.14 µM
CC(=O)OC[C@]12[C@H](OC(C)=O)[C@H](OC(C)=O)[C@@H]3[C@@H](OC(C)=O)[C@@]14O[C@@]3(C)COC(=O)c1cccnc1[C@@H](C)[C@H](C)C(=O)O[C@@H]([C@H](OC(=O)c1ccccc1)[C@@H]2OC(C)=O)C4(C)O | H9 | - | - | - | 0.48 µg/mL
CCOP(=O)(NCC(=O)OC)OC[C@H]1O[C@@H](n2cc(C)c(=O)[nH]c2=O)C[C@@H]1N=[N+]=[N-] | C8166 | - | RF | - | 10 µM
CC(C)CN(C[C@@H](O)[C@H](Cc1ccccc1)NC(=O)O[C@H]1CCOC1)S(=O)(=O)N1CCCCC1 | CEM | - | IIIB | - | <0.101 µM
COCC#CC1(C(F)(F)F)OC(=O)Nc2ccc(Cl)cc21 | MT-4 | - | IIIB | - | <0.05 µM
CC12CCC[C@]3(C(=O)OC1)[C@@H]2CC[C@@]12C[C@@H](CC[C@H]13)[C@@](C)(O)C2 | H9 | - | IIIB | - | 0.025 µM
O=C1Nc2ccc(Cl)cc2C(C#Cc2ccccc2)(C(F)(F)F)O1 | MT-4 | - | IIIB | - | <0.025 µM
CN1N=C(N)c2cn([C@@H]3O[C@H](COP(=O)(O)O)[C@@H](O)[C@H]3O)c3ncnc1c23 | H9 | - | IIIB | - | 0.02 µM
Nc1nccc2c1ncn2[C@@H]1O[C@H](CO)[C@@H](O)[C@H]1O | PBMC | - | 18601 unpaired | - | 0.254 µM
COC(=O)[C@H](C)NP(=O)(OC[C@@H]1C=C[C@H](n2cc(C)c(=O)[nH]c2=O)O1)Oc1ccc(Br)cc1 | CEM + CEM TK- | - | IIIB | - | 0.044 µM
CC(=O)OC[C@]12[C@H](OC(C)=O)[C@H](OC(C)=O)[C@@H]3[C@@H](OC(=O)c4ccccc4)[C@@]14O[C@@]3(C)COC(=O)c1cccnc1[C@@H](C)[C@H](C)C(=O)O[C@@H]([C@H](OC(C)=O)[C@@H]2OC(C)=O)C4(C)O | H9 | - | - | - | 0.9 µg/mL
CC(C)[C@H](NC(=O)[C@H](NCc1ccc(Cl)cc1)[C@H](O)[C@H](Cc1ccccc1)NC(=O)[C@@H](NC(=O)OCc1ccccc1)C(C)(C)C)C(=O)NCc1nc2ccccc2[nH]1 | MT-4 | - | RF | - | 0.038 µM
O=C1Nc2ccc(Cl)cc2[C@@](C#CC2CC2)(C(F)(F)F)N1 | MT-4 | RT-K103N | - | - | <0.01 µM
O=C(O[C@@H]1Cc2c(O)cc(O)cc2O[C@@H]1c1cc(O)c(O)c(O)c1-c1c([C@H]2Oc3cc(O)cc(O)c3C[C@H]2OC(=O)c2cc(O)c(O)c(O)c2)cc(O)c(O)c1O)c1cc(O)c(O)c(O)c1 | MT-2 | - | IIIB | - | 1.51 µM
CC(=O)OC[C@]12[C@H](OC(C)=O)[C@H](OC(=O)c3cccnc3)[C@@H]3[C@@H](OC(=O)c4ccoc4)[C@@]14O[C@@]3(C)COC(=O)c1cccnc1[C@@H](C)[C@H](C)C(=O)O[C@@H]([C@H](OC(C)=O)[C@@H]2OC(C)=O)C4(C)O | H9 | - | - | - | 0.172 µg/mL
O=C(COc1ccc(Cl)cc1C(=O)c1ccccc1)Nc1ccccc1 | C8166 | - | RF | - | 0.0032 µM
CC(C)C#C[C@]1(C(F)(F)F)NC(=O)Nc2ccc(F)c(F)c21 | MT-4 | RT-K103N | - | - | <0.009 µM
O=C1Nc2ccc(Cl)cc2[C@@](/C=C/C2CC2)(C(F)(F)F)N1 | MT-4 | RT-K103N | - | - | <0.027 µM
CCCCOP(=O)(OCCCC)OC[C@H]1O[C@@H](n2cc(C)c(=O)[nH]c2=O)C[C@@H]1OCC | C8166 | - | RF | - | >100 µM
CCCCOP(=O)(NC(C(=O)OC)C(C)C)OC[C@H]1O[C@@H](n2cc(C)c(=O)[nH]c2=O)C[C@@H]1O | C8166 | - | RF | - | >100 µM
CC(C)[C@H](NC(=O)OCc1ccccc1)C(=O)N[C@@H](Cc1ccccc1)[C@@H](O)[C@@H](NCc1ccc(Br)cc1)C(=O)N[C@H](C(=O)NCc1nc2ccccc2[nH]1)C(C)C | MT-4 | - | RF | - | 0.14 µM
CC(C)(C)OC(=O)N[C@@H](Cc1ccccc1)[C@@H](O)C[C@]1(Cc2ccccc2)NC=C(C2c3ccccc3[C@H]3NC(=O)O[C@@H]23)C1=O | MT-4 | - | IIIB WT | 10% FBS | <0.156 µM
CCCCCCCCCCCCCC(=O)OCC/C(SS/C(CCOC(=O)CCCCCCCCCCCCC)=C(\C)N(C=O)Cc1cnc(C)nc1N)=C(/C)N(C=O)Cc1cnc(C)nc1N | CEM | - | IIIB(SI/TT) | - | <1 µM
COCCCCCCCCCCCC(=O)OC[C@@H]1C=C[C@H](n2cc(C)c(=O)[nH]c2=O)O1 | MT-4 | - | - | - | 1.18 µM
Cc1cn([C@H]2C[C@H](N=[N+]=[N-])[C@@H](COP(=O)(O)C(=O)NCCO)O2)c(=O)[nH]c1=O | MT-4 | - | GKV-4046 | - | 2.4 µM
O=C(O[C@H]1Cc2c(O)cc(O)cc2O[C@@H]1c1cc(O)c(O)c(O)c1)c1cc(O)c(O)c(O)c1 | MT-2 | - | IIIB | - | 4.61 µM
CC(C)CN(C[C@@H](O)[C@H](Cc1ccccc1)NC(=O)O[C@H]1CCOC1)S(=O)(=O)c1cccc2nonc12 | CEM | - | IIIB | - | <1.001 µM
C/C=C(/C)C(=O)OC1c2cc3c(c4c2[C@](C(=O)C(=O)OC)(CO4)/C(=C\C(=O)OC)C[C@@H](C)[C@H]1C)OCO3 | H9 | - | IIIB | - | 35 µg/mL
O=C(O)c1cn(C2CC2)c2c(OC(F)F)c(N3CCN(Cc4ccccc4)CC3)c(F)cc2c1=O | MOLT-4/HIV-1(IIIB) + MOLT-4 | - | IIIB | - | >23 µM
CCOP(=O)(OCC)OC[C@H]1O[C@@H](n2cc(C)c(=O)[nH]c2=O)C[C@@H]1OS(C)(=O)=O | C8166 | - | RF | - | >100 µM
C/C=C(/C)C(=O)OC1c2cc3c(c(OC)c2-c2c(cc4c(c2OC)OCO4)C[C@H](C)[C@H]1C)OCO3 | H9 | - | IIIB | - | 11 µg/mL
CCCOP(=O)(N[C@H](C(=O)OC)C(C)C)OC[C@H]1O[C@@H](n2cc(C)c(=O)[nH]c2=O)C[C@@H]1N=[N+]=[N-] | C8166 | - | RF | - | 10 µM
O=C(N[C@@H](Cc1ccccc1)[C@H](O)CN(CC1CCCC1)S(=O)(=O)c1ccc(OC(F)(F)F)cc1)O[C@H]1CCOC1 | CEM | - | IIIB | - | <1.001 µM
O=C(CCCCCCCCCCC(=O)Nc1cc(S(=O)(=O)O)cc2cc(S(=O)(=O)O)cc(O)c12)Nc1cc(S(=O)(=O)O)cc2cc(S(=O)(=O)O)cc(O)c12 | H9 | - | - | - | >2 µg/mL
Cc1cn([C@H]2C[C@H](N=[N+]=[N-])[C@@H](COP(=O)(O)CCl)O2)c(=O)[nH]c1=O | MT-4 | - | GKV-4046 | - | 1.3 µM
COC(=O)[C@H](C)NP(=O)(OC[C@@H]1C=C[C@H](n2cc(C)c(=O)[nH]c2=O)O1)Oc1ccc(OC)cc1 | PBMC | - | IIIB | - | 0.033 µM
CC(C)[C@H](NC(=O)[C@H](NCc1ccccc1)[C@H](O)[C@H](Cc1ccccc1)NC(=O)[C@@H](NC(=O)OCc1ccccc1)C(C)(C)C)C(=O)NCc1ccccc1 | MT-4 | - | RF | - | 0.534 µM
CCOC(=O)N[C@@H](Cc1ccccc1)[C@H](O)CN(CC1CCCC1)S(=O)(=O)c1ccc(F)cc1 | CEM | - | IIIB | - | <0.101 µM
COc1c2c(cc3c1-c1c(cc4c(c1OC)OCO4)C(OC(=O)c1ccccc1)[C@H](C)[C@@H](C)C3)OCO2 | H9 | - | IIIB | - | 3 µg/mL
CCCc1cc(=O)oc2c3c(c4c(c12)OC(C)(C)C=C4)O[C@H](C)C[C@@H]3O | PBMC | - | 1018a Clinical isolate | - | 3.51 µM
C=CCOC(=O)N[C@@H](Cc1ccccc1)[C@H](O)CN(CC1CCCC1)S(=O)(=O)c1ccc2c(c1)CCN2C(C)=O | CEM | - | IIIB | - | <0.101 µM
CCCCCCOP(=O)(N[C@H](C(=O)OC)C(C)C)OC[C@H]1O[C@@H](n2cc(C)c(=O)[nH]c2=O)C[C@@H]1N=[N+]=[N-] | C8166 | - | RF | - | 10–30 µM
Cc1cn([C@H]2C[C@H](N=[N+]=[N-])[C@@H](COP(=O)(O)CCN)O2)c(=O)[nH]c1=O | MT-4 | - | GKV-4046 | - | 3.2 µM
COc1cc2c(c(OC)c1OC)-c1c(cc3c(c1OC)OCO3)C[C@H](C)[C@@](C)(O)C2 | H9 | - | IIIB | - | 12 µg/mL
O=C1Nc2ccc(Cl)c3c2[C@](C(F)(F)F)(C=C(c2ccccc2)O3)N1 | MT-4 | RT-K103N | - | - | <0.046 µM
CCN(CC)CCOc1ccc(NC(=O)COc2ccccc2C(=O)c2ccc(OC)cc2)cc1 | C8166 | - | RF | - | 0.318 µM
COc1c(Cl)ccc2c1[C@@](C#Cc1cccnc1)(C(F)(F)F)NC(=O)N2 | MT-4 | RT-K103N | - | - | <0.147 µM
CCn1cc(C(=O)O)c(=O)c2cc(F)c(N3CCN(c4ccccc4OC)CC3)c(OC(F)F)c21 | PBMC | - | IIIB | - | 0.6 µM
CC1=CCC[C@H]2[C@](C)(Cc3cc(O)ccc3O)[C@@H](C)CC[C@]12C | H9 | - | IIIB | - | <0.1 µg/mL
C/C=C/CSc1cc(NC(=S)c2ccsc2C)ccc1Cl | CEM + CEM-SS | RT-D67N K70R L100I T215Y K219Q | 4XAZT+L100I (RT D67N K70R L100I T215Y K219Q) | - | 1 µM
CCCOP(=O)(OCCC)OC[C@H]1O[C@@H](n2cc(C)c(=O)[nH]c2=O)C[C@@H]1N=[N+]=[N-] | C8166 | - | RF | - | >100 µM
CC(C)CN(C[C@@H](O)[C@H](Cc1ccccc1)NC(=O)OCC1CCOC1)S(=O)(=O)c1ccc(Cl)c(Cl)c1 | CEM | - | IIIB | - | <1.001 µM
CC(C)[C@H](NC(=O)OCc1ccccc1)C(=O)N[C@@H](Cc1ccccc1)[C@@H](O)[C@@H](NCc1ccccc1)C(=O)N[C@H](C(=O)NCc1ccccc1)C(C)C | MT-4 | - | RF | - | 1.005 µM
COc1cc2c(c(OC)c1OC)-c1c(cc(OC)c(OC)c1OC)C[C@H](C)[C@H](C)C2 | H9 | - | IIIB | - | 1 µg/mL
O=C(c1ccccc1)c1cc(Cl)ccc1OCC(=O)N1CCc2ccccc2C1 | C8166 | - | RF | - | 0.0394 µM
COc1c2c(cc3c1-c1c(cc4c(c1OC)OCO4)C[C@H](C)[C@H](C)C3)OCO2 | H9 | - | IIIB | - | 1.2 µg/mL
CCC1(c2ccccc2)OC(=S)Nc2ccc(Cl)cc21 | MT-4 | - | IIIB | - | <0.1 µM

Repeating the final 7 entries:

smiles,cells,changes,strain or isolate,conditions,value
CCCOP(=O)(OCCC)OC[C@H]1O[C@@H](n2cc(C)c(=O)[nH]c2=O)C[C@@H]1N=[N+]=[N-],C8166,-,RF,-,>100 µM
CC(C)CN(C[C@@H](O)[C@H](Cc1ccccc1)NC(=O)OCC1CCOC1)S(=O)(=O)c1ccc(Cl)c(Cl)c1,CEM,-,IIIB,-,<1.001 µM
CC(C)[C@H](NC(=O)OCc1ccccc1)C(=O)N[C@@H](Cc1ccccc1)[C@@H](O)[C@@H](NCc1ccccc1)C(=O)N[C@H](C(=O)NCc1ccccc1)C(C)C,MT-4,-,RF,-,1.005 µM
COc1cc2c(c(OC)c1OC)-c1c(cc(OC)c(OC)c1OC)C[C@H](C)[C@H](C)C2,H9,-,IIIB,-,1 µg/mL
O=C(c1ccccc1)c1cc(Cl)ccc1OCC(=O)N1CCc2ccccc2C1,C8166,-,RF,-,0.0394 µM
COc1c2c(cc3c1-c1c(cc4c(c1OC)OCO4)C[C@H](C)[C@H](C)C3)OCO2,H9,-,IIIB,-,1.2 µg/mL
CCC1(c2ccccc2)OC(=S)Nc2ccc(Cl)cc21,MT-4,-,IIIB,-,<0.1 µM